Pooled drug test results. Numbers come from NIAID ChemDB, via PubChem.

Shared fields: host cell toxicity; cell line: HepG2.2.15; endpoint: CC50

Neighbouring rows are from separate reports. An empty or dashed field is not shown. CCn: concentration that lowers growth or viability of the cells by n%.

compound | read by | result
C[C@H](C[C@H](OC(=O)/C=C/c1ccccc1Cl)[C@@H](OC(=O)/C=C/c1ccccc1Cl)C(C)(C)OC(=O)/C=C/c1ccccc1Cl)C1=C2C[C@H](OC(=O)/C=C/c3ccccc3Cl)[C@H]3[C@@]4(C)CCC(=O)C(C)(C)[C@@H]4CC[C@]3(C)[C@@]2(C)CC1 | - | >1400 µM
CC1(C)[C@@H](O)CC[C@]2(C)[C@H]3C(=O)C=C4[C@@H]5C[C@@](C)(C(=O)OCCCBr)CC[C@]5(C)CC[C@@]4(C)[C@]3(C)CC[C@@H]12 | - | 160.1 µM
COC(=O)C1=C(CN2CC(F)(F)[C@@H]3[C@H]2CON3C[C@@H](OC)C(C)(C)C(=O)O)NC(c2nccs2)=N[C@H]1c1ccc(F)c(F)c1F | WST / absorbance | 41.7 µM
COCC(=O)O[C@@H](C[C@@H](C)C1=C2C[C@H](OC(=O)COC)[C@H]3[C@@]4(C)CCC(=O)C(C)(C)[C@@H]4CC[C@]3(C)[C@@]2(C)CC1)[C@@H](OC(=O)COC)C(C)(C)O | - | 400 µM
C[C@H](C[C@H](OC(=O)CCC1CCCCC1)[C@@H](OC(=O)CCC1CCCCC1)C(C)(C)OC(=O)CCC1CCCCC1)C1=C2C[C@H](OC(=O)CCC3CCCCC3)[C@H]3[C@@]4(C)CCC(=O)C(C)(C)[C@@H]4CC[C@]3(C)[C@@]2(C)CC1 | - | >1700 µM
C=CCOC(=O)[C@@]1(C)CC[C@]2(C)CC[C@]3(C)C(=CC(=O)[C@@H]4[C@@]5(C)CCC(O)C(C)(C)[C@@H]5CC[C@]43C)[C@@H]2C1 | - | >2310 µM
C=C(C)[C@H](OC(=O)COCC)[C@H](C[C@@H](C)[C@]12CC[C@@]3(C)[C@@]1(C[C@H](OC(=O)COCC)[C@H]1[C@@]4(C)CCC(=O)C(C)(C)[C@@H]4CC[C@@]13C)O2)OC(=O)COCC | - | >1800 µM
C[C@H](C[C@H](O[Si](C)(C)C)[C@@H](O[Si](C)(C)C)C(C)(C)O[Si](C)(C)C)C1=C2C[C@H](O[Si](C)(C)C)[C@H]3[C@@]4(C)CCC(=O)C(C)(C)[C@@H]4CC[C@]3(C)[C@@]2(C)CC1 | - | >51 µM
CCOC(=O)C1=C(CN2CC(F)(F)[C@@H]3[C@H]2CON3C[C@@H](OC)C(C)(C)C(=O)O)NC(c2nc(C)cs2)=N[C@H]1c1cccc(F)c1C | WST / absorbance | 54 µM
CCCCCCCC(=O)O[C@@H](C[C@@H](C)C1=C2C[C@H](OC(=O)CCCCCCC)[C@H]3[C@@]4(C)CCC(=O)C(C)(C)[C@@H]4CC[C@]3(C)[C@@]2(C)CC1)[C@@H](OC(=O)CCCCCCC)C(C)(C)O | - | >600 µM
COC(=O)C1=C(CN2CC(F)(F)[C@H]3[C@@H]2CCN3CC[C@@](C)(O)C(=O)O)NC(c2nccs2)=N[C@H]1c1ccc(F)c(F)c1C | WST / absorbance | >50 µM
C[C@H](C[C@H](OC(=O)c1ccc(Cl)cc1)[C@@H](OC(=O)c1ccc(Cl)cc1)C(C)(C)OC(=O)c1ccc(Cl)cc1)C1=C2C[C@H](OC(=O)c3ccc(Cl)cc3)[C@H]3[C@@]4(C)CCC(=O)C(C)(C)[C@@H]4CC[C@]3(C)[C@@]2(C)CC1 | - | >1400 µM
C=C(C)[C@H](OC(=O)COC(C)=O)[C@H](C[C@@H](C)[C@]12CC[C@@]3(C)[C@@]1(C[C@H](OC(=O)COC(C)=O)[C@H]1[C@@]4(C)CCC(=O)C(C)(C)[C@@H]4CC[C@@]13C)O2)OC(=O)COC(C)=O | - | >1600 µM
CCOC(=O)C1=C(CN2CC(F)(F)[C@@H]3[C@H]2CON3C[C@H](OC)C(C)(C)C(=O)O)NC(c2nccs2)=N[C@@H]1c1ccc(F)c(F)c1C | WST / absorbance | 30.6 µM
Cc1nc(COC(=O)[C@@]2(C)CC[C@]3(C)CC[C@]4(C)C(=CC(=O)[C@@H]5[C@@]6(C)CC[C@H](O)C(C)(C)[C@@H]6CC[C@]54C)[C@@H]3C2)cs1 | - | 37.17 µM
CCOC(=O)C1=C(CN2CC(F)(F)[C@H]3[C@@H]2CCN3CC[C@@](C)(O)C(=O)O)NC(c2nccs2)=N[C@H]1c1ccc(F)c(F)c1Cl | WST / absorbance | 81.8 µM
COc1cc(/C=C/C(=O)O[C@H]2CC[C@]3(C)[C@H]4CC=C5[C@@H]6C[C@@](C)(C(=O)OCc7ccc(C(F)(F)F)cc7)CC[C@]6(C)CC[C@@]5(C)[C@]4(C)CC[C@H]3C2(C)C)cc(OC)c1OC | - | >987 µM
C[C@H](C[C@H](OC(=O)CCOc1ccccc1)[C@@H](OC(=O)CCOc1ccccc1)C(C)(C)O)C1=C2C[C@H](OC(=O)CCOc3ccccc3)[C@H]3[C@@]4(C)CCC(=O)C(C)(C)[C@@H]4CC[C@]3(C)[C@@]2(C)CC1 | - | >950 µM
C[C@H](C[C@H](OC(=O)/C=C/c1ccccc1)[C@@H](OC(=O)/C=C/c1ccccc1)C(C)(C)OC(=O)/C=C/c1ccccc1)C1=C2C[C@H](OC(=O)/C=C/c3ccccc3)[C@H]3[C@@]4(C)CCC(=O)C(C)(C)[C@@H]4CC[C@]3(C)[C@@]2(C)CC1 | - | >1200 µM
CCOC(=O)C1=C(CN2CC(F)(F)[C@@H]3[C@H]2CON3C[C@H](O)[C@@H](CC)C(=O)O)NC(c2nccs2)=N[C@H]1c1cccc(F)c1C | WST / absorbance | >100 µM
CCC(=O)O[C@@H](C[C@@H](C)C1=C2C[C@H](OC(=O)CC)[C@H]3[C@@]4(C)CCC(=O)C(C)(C)[C@@H]4CC[C@]3(C)[C@@]2(C)CC1)[C@@H](OC(=O)CC)C(C)(C)OC(C)=O | - | >1700 µM
C=CCCOC(=O)[C@@]1(C)CC[C@]2(C)CC[C@]3(C)C(=CC(=O)[C@@H]4[C@@]5(C)CC[C@H](O)C(C)(C)[C@@H]5CC[C@]43C)[C@@H]2C1 | - | >1750 µM

For reference, 2 entries again:

compound | read by | result
C=C(C)[C@H](OC(=O)COC(C)=O)[C@H](C[C@@H](C)[C@]12CC[C@@]3(C)[C@@]1(C[C@H](OC(=O)COC(C)=O)[C@H]1[C@@]4(C)CCC(=O)C(C)(C)[C@@H]4CC[C@@]13C)O2)OC(=O)COC(C)=O | - | >1600 µM
COC(=O)C1=C(CN2CC(F)(F)[C@@H]3[C@H]2CON3C[C@@H](OC)C(C)(C)C(=O)O)NC(c2nccs2)=N[C@H]1c1ccc(F)c(F)c1F | WST / absorbance | 41.7 µM